A mixed list of measured activities; the numbers were collected in NIAID ChemDB.

All rows: enzyme or target tests; organism: HIV-1; protein: Reverse transcriptase; measure: fold resistance

Rows are shuffled and stem from different studies. Blank or dashed fields: not listed here. Two numbers with a dash give a range or band. Fold resistance: result on the changed form divided by that on wild type.

smiles,read by,changes,strain,result
NS(=O)(=O)c1ccc(NC(=O)CSc2nnc(Br)n2-c2ccc(C3CC3)cc2OC(F)(F)F)c(Cl)c1,nucleotide incorporation / radiometric,RT-Y188L,-,>2
CCN1c2ncc(CCOc3ccc(NC(=O)c4ccc(C(=O)O)cn4)cc3C)cc2C(=O)N(C)c2cccnc21,nucleotide incorporation / radiometric,RT-K103N Y181C,IIIB,1
CCc1ccc(-n2c(Br)nnc2SCC(=O)Nc2ccc(C(=O)NCC(C)(C)N)cc2Cl)c2ccccc12,nucleotide incorporation / radiometric,RT-Y188L,-,>1
CCN1c2ncc(CCOc3ccc(CCC(=O)O)c4c3CCCC4)cc2C(=O)N(C)c2ccc(Cl)nc21,nucleotide incorporation / radiometric,RT-V106A,-,>10
CCN1c2ncc(CCOc3ccc(C(=O)NCC(CC)(CC)C(=O)O)cc3C)cc2C(=O)N(C)c2cccnc21,nucleotide incorporation / radiometric,RT-K103N Y181C,IIIB,1
CCN1c2ncc(CCOc3cccc4c3ccc[n+]4[O-])cc2C(=O)N(C)c2ccc(Cl)nc21,nucleotide incorporation / radiometric,RT-K103N,RT -K103N,5.1
CCN1c2ncc(CCOc3ccc(-c4ccc(C(=O)O)cc4)cc3)cc2C(=O)N(C)c2ccc(Cl)nc21,nucleotide incorporation / radiometric,RT-K103N Y181C,IIIB,1
CCc1ccc(-n2c(Br)nnc2SCC(=O)Nc2ccc(C(=O)O)cc2Cl)c2ccccc12,nucleotide incorporation / radiometric,RT-Y188L,-,>2
CCN1c2ncc(CCOc3ccc(-c4ccc(C(C)C(=O)O)cc4)cc3C)cc2C(=O)N(C)c2cccnc21,nucleotide incorporation / radiometric,RT-K103N Y181C,IIIB,1
CCN1c2ncc(CCOc3ccc(NC(=O)CCC(=O)O)c4ccccc34)cc2C(=O)N(C)c2cccnc21,nucleotide incorporation / radiometric,RT-K103N Y181C,-,1–10
CC(Sc1nnc(Br)n1-c1ccc(C2CC2)c2ccccc12)C(=O)Nc1ccc(S(N)(=O)=O)cc1Cl,nucleotide incorporation / radiometric,RT-Y188L,-,>2
CCN1c2ncc(CCOc3ccc(NS(=O)(=O)C(F)(F)F)c4ccccc34)cc2C(=O)N(C)c2ccc(F)nc21,nucleotide incorporation / radiometric,RT-V106A,-,>10
CCc1ccc(-n2c(Br)nnc2SCC(=O)Nc2ccc(C(=O)NCCC#N)cc2Cl)c2ccccc12,nucleotide incorporation / radiometric,RT-Y181C,-,>1
CCc1cc(CCc2nc3ccccc3o2)c(=O)[nH]c1C,nucleotide incorporation,RT-Y181C,-,223.7
CCN1c2ncc(CCOc3ccc(-c4ccc(C)cc4)cc3C)cc2C(=O)N(C)c2cccnc21,nucleotide incorporation / radiometric,RT-K103N Y181C,IIIB,1
CCN1c2ncc(CCOc3ccc(C(=O)O)c4ccccc34)cc2C(=O)N(C)c2ccc(F)nc21,nucleotide incorporation / radiometric,RT-Y188L,-,>10
Cc1ccc2ccccc2c1-n1c(Br)nnc1SC(C)C(=O)Nc1ccc(S(N)(=O)=O)cc1Cl,nucleotide incorporation / radiometric,RT-Y181C,-,>1
CCN1c2ncc(CCOc3ccc(C(=O)O)c4c3CCN(C(=O)OC)C4)cc2C(=O)N(C)c2cccnc21,nucleotide incorporation / radiometric,RT-K103N Y181C,-,1–10
CCN1c2ncc(CCOc3ccc(-c4ccc(CCC(=O)O)cc4)cc3C)cc2C(=O)N(C)c2cccnc21,nucleotide incorporation / radiometric,RT-K103N Y181C,IIIB,1

3 of the rows above, restated:

smiles,read by,changes,strain,result
CCN1c2ncc(CCOc3ccc(-c4ccc(C)cc4)cc3C)cc2C(=O)N(C)c2cccnc21,nucleotide incorporation / radiometric,RT-K103N Y181C,IIIB,1
Cc1ccc2ccccc2c1-n1c(Br)nnc1SC(C)C(=O)Nc1ccc(S(N)(=O)=O)cc1Cl,nucleotide incorporation / radiometric,RT-Y181C,-,>1
CCN1c2ncc(CCOc3ccc(-c4ccc(C(C)C(=O)O)cc4)cc3C)cc2C(=O)N(C)c2cccnc21,nucleotide incorporation / radiometric,RT-K103N Y181C,IIIB,1